The exact form of at least one protein or probe is not confirmed. Negatives hold for the conditions tested.
What was measured:
[1] = test system: 2G12 (anti-HIV gp120 broadly neutralizing antibody); experiment: binding assay; conditions: transcript of the listed DNA; 2'-F pyrimidines; every U is 2'-F-5-ethynyl-U clicked to Man9-cyclohexyl azide; no significant binding; clone lacks capture/spacer region; purified recombinant protein
[2] = test system: 2G12 (anti-HIV gp120 broadly neutralizing antibody); experiment: pull-down; conditions: 2'-F pyrimidines, no binding at 300 nM 2G12, qPCR bead assay, purified recombinant protein
[3] = test system: 2G12 (anti-HIV gp120 broadly neutralizing antibody); experiment: filter binding; conditions: 2'-F pyrimidines, purified recombinant protein
[4] = every U is 2'-F-5-ethynyl-U clicked to Man9-cyclohexyl azide (3 glycans), variant of 15F3
[5] = every U is 2'-F-5-ethynyl-U clicked to Man9-cyclohexyl azide (2 glycans), variant of 15F1

GGAGACAGGAUUGACACCGACCACUUGCCCAAGCGACACAAAGCCCGG [18F4]
binding result [1]: no binding

GGAGACUGUCCCAACGGCAAUGUGGCUCACAAGCGACACAAAGCCCGG [17F3]
binding result [1]: no binding

GGAGAGAAGGAGGGAAGAGAGAAAAAAAACAUAGGGAACCCAGGAGAUUGGGGCAAGCGACACAAAGCCCGG [15F3-M2]
binding result [2, 4]: no binding

GGAGAGAAGGAGGGAAGAGAGAAAAAAAACAUAGGGAACCCAGGUGACUGGGGCAAGCGACACAAAGCCCGG [15F3-M3]
binding result [2, 4]: no binding

GGAGAGAAGGAGGGAAGAGAGAAAAAAAACAUAGGGAACCCAGGUGAUUGGGGCAAGCGACACAAAGCCCGG [15F3]
binding result ([3]; every U is 2'-F-5-ethynyl-U clicked to Man9-cyclohexyl azide (4 glycans), minimal or no binding after denaturing PAGE purification and refolding): no binding

GGAGAGAAGGAGGGAAGAGAGAAAAAAAACAUAGGGAACGCCGGUGAUGGCGGCAAGCGACACAAAGCCCGG [15F3-M4]
binding result [2, 4]: no binding

GGAGAGAAGGAGGGAAGAGAGAAAAAAACGACGGAACAGGGGCCCCCUGUGGAAAGCGACACAAAGCCCGG [15F1-M1]
binding result ([2]; every U is 2'-F-5-ethynyl-U clicked to Man9-cyclohexyl azide (2 glycans), at most 3% of parent signal (FIG. 8), variant of 15F1): no binding

GGAGAGAAGGAGGGAAGAGAGAAAAAAUCGACGGAACAGGGGCCCCCUGUGGAAAGCGACACAAAGCCCGG [15F1]
binding result ([3]; every U is 2'-F-5-ethynyl-U clicked to Man9-cyclohexyl azide (3 glycans), minimal binding after denaturing PAGE purification and refolding): no binding

GGAGAGAAGGAGGGAAGAGAGAAAAAAUCGACGGAACCGGGGCCCCCGGUGGAAAGCGACACAAAGCCCGG [15F1-M2]
binding result [2, 5]: no binding

GGAGAGAAGGAGGGAAGAGAGAAAAAAUCGACGGAGCAGGGGCCCCCUGCGGAAAGCGACACAAAGCCCGG [15F1-M3]
binding result [2, 5]: no binding

From patent publication US20250281598
